Source: article PMC9139167, “Rational Discovery of Antiviral Whey Protein-Derived Small Peptides Targeting the SARS-CoV-2 Main Protease” (Biomedicines, 2022)

Molecular target: SARS-CoV-2 3CL Protease (Severe acute respiratory syndrome coronavirus 2, UniProt P0DTD1)
Assay: biochemical
[1] = read-out: Relative Inhibition (RI %)

SMILES: CC[C@H](C)[C@H](N)C(=O)N1CCC[C@H]1C(=O)N[C@@H](C)C(=O)N[C@H](C(=O)N[C@@H](Cc1ccccc1)C(=O)O)C(C)C [IPAVF]
- IC50: 1210 nM
- inhibition at 0.042 µM [1]: 27 ± 2.19%
- inhibition at 0.42 µM [1]: 42.9 ± 3.54%
- inhibition at 4.2 µM [1]: 50.2 ± 3.39%
- inhibition at 42 µM [1]: 52 ± 4.34%
- inhibition at 126 µM [1]: 57.28 ± 0.38%
- inhibition at 210 µM [1]: 70.4 ± 0.76%
- inhibition at 420 µM [1]: 65 ± 6.28%
